# Laboratory results as given in publication PMC9921063 (Molecules, 2023).
# What was measured:
# Settings in all cases: CC50 (Vero) over IC50
# L. major amastigotes = assay: Antileishmanial assay, amastigotes; format: cell-based, Leishmania major
# Experimental: (§1) This assay was carried out according to the methods mentioned in our previously published article. L. major promastigotes were isolated locally from an indoor patient in 2016, liquid nitrogen was used for the preservation of the parasites, and BALB/c mice were used for the maintenance of the parasites and production of L. major amastigotes. Phenol red-free RPMI 1640 medium (Invitrogen, USA) with 10% FBS was used for the culture and in vitro evaluation, while amphotericin B (AmB) was used as reference drug.
# L. major promastigotes = assay: Antileishmanial assay, promastigotes; format: cell-based, Leishmania major
# Experimental: as §1
# [1] = system: T. gondii tachyzoites RH strain; assay: Antitoxoplasmal assay; format: cell-based, Toxoplasma gondii
# Experimental: This assay was carried out according to the methods mentioned in our previously published article. Vero cells line (ATCC® CCL81™, USA) were used for the serial passage and cultivation of T. gondii tachyzoites RH strain, complete RPMI 1640 medium with heat-inactivated 10% FBS was used for the culture and in vitro evaluation, while atovaquone (ATO) was used as reference drug. The results were expressed in IC50 of three independent readings, followed by the selectivity index (SI) calculation by dividing CC50 over IC50 of the same compound [56].
Compound,Amastigote SI (L. major amastigotes),Promastigote SI (L. major promastigotes),SI Toxoplasma [1]
"Cc1ccc(C[n+]2cn(Cc3ccc(C(C)(C)C)cc3)c3cc(C)c(C)cc32)cc1 [Compound 2c, 5,6-dimethyl-1,3-((4-(tert-butyl)-4-methyl-benzyl)-1H-benzo[d]imidazol-3-ium bromide]",1.7,0.5,1.4
"5,6-dimethyl-1,3-bis(2,3,4,5,6-pentamethylbenzyl)-1H-benzo[d]imidazol-3-ium bromide [Compound 2a]",1.1,0.4,0.14
"Cc1cc(C)c(Cn2c[n+](Cc3c(C)cc(C)cc3C)c3cc(C)c(C)cc32)c(C)c1.[Br-] [Compound 2b, 5,6-dimethyl-1,3-bis(2,4,6-trimethylbenzyl)-1H-benzo[d]imidazol-3-ium bromide]",3.7,0.5,0.3
